This note sets out measurements from ChEMBL document CHEMBL4513135, “CO-ADD screening of IQOG CSIS (Spain) compounds”.

Assay [1] relates to Cryptococcus neoformans. The following applies: ATCC 208821, Concentration 32.0 ug.mL-1.
Assay [2] relates to Klebsiella pneumoniae. The following applies: ATCC 700603, Concentration 32.0 ug.mL-1.
Assay [3] deals with Candida albicans. The following applies: ATCC 90028, Concentration 32.0 ug.mL-1.

Broadly, the inhibition is the drop in the measured response relative to a control, in per cent. `COc1ccc(C=C(C#N)C#N)cc1`: the inhibition is -2.14% in assay [1], 4.4% in assay [2] and -0.5% in assay [3].
